Like-named read-outs stand apart in the source and are kept apart here.
Test system: Candidatus Liberibacter asiaticus (CLas)
Conditions: trunk injection, infected Mosambi (Citrus sinensis), 2S albumin 330 ppm, Nano-ZnO 1,000 ppm alone or 330 ppm in combination, Zinc nitrate 165 ppm

## O=[N+]([O-])[O-].O=[N+]([O-])[O-].[Zn+2] [Zinc nitrate]
30 DAT
  fold decrease of CLas titer: 1 fold
60 DAT
  fold decrease of CLas titer: 0 fold
90 DAT
  fold decrease of CLas titer: 0 fold
120 DAT
  fold decrease of CLas titer: 0.5 fold

Reference: patent publication US11229608B2 (priority 2019, dated 2022)
